# Test system: O=C(COP(=O)(O)O)[C@@H](O)[C@H](O)[C@H](O)[C@H](O)COP(=O)(O)O
# Assay: purified protein
# Conditions: pH 7.4; 30.0 °C
substance,measurement,value
(Brucella suis 1330),Km,11.6 ± 1.9 µM
same,Vmax,14.3 µmol/min/mg
same,kcat/Km,710000 M⁻¹ s⁻¹

# Source: publication PMC11005471 (Frontiers in Veterinary Science, 2024)
